US20220089698A1, “ANTIBODIES THAT TARGET HIV GP120 AND METHODS OF USE” (published 2022)
Residue numbers refer to the chain shown, from its start. Read-outs that look alike come from different tables or passages of the source.

Legend:
Experiment in all cases: cell-based or functional assay
[1] = molecular target: HIV-1 envelope glycoprotein (gp120) of virus 92US712 (HIV-1)
[2] = molecular target: HIV-1 envelope glycoprotein (gp120) of virus 92US712 (HIV-1); remark: listed apart in the source
[3] = molecular target: HIV-1 envelope glycoprotein (gp120) of virus 7141 (HIV-1)
[4] = molecular target: HIV-1 envelope glycoprotein (gp120) of virus VS001 (HIV-1)
[5] = molecular target: HIV-1 envelope glycoprotein (gp120) of virus 92US727 (HIV-1)
[6] = molecular target: HIV-1 envelope glycoprotein (gp120) of virus 8398 (HIV-1)
[7] = molecular target: HIV-1 envelope glycoprotein (gp120) of virus RHPA (HIV-1)
[8] = molecular target: HIV-1 envelope glycoprotein (gp120) of virus 7051 (HIV-1)
[9] = molecular target: HIV-1 envelope glycoprotein (gp120) of virus 1413 (HIV-1)
[10] = molecular target: HIV-1 envelope glycoprotein (gp120) of virus 92US657 (HIV-1)
[11] = molecular target: HIV-1 envelope glycoprotein (gp120) of virus 7595 (HIV-1)
[12] = molecular target: HIV-1 envelope glycoprotein (gp120) of virus 7576 (HIV-1)
[13] = molecular target: HIV-1 envelope glycoprotein (gp120) of virus 8318 (HIV-1)
[14] = molecular target: HIV-1 envelope glycoprotein (gp120) of virus 92HT593 (HIV-1)
[15] = molecular target: HIV-1 envelope glycoprotein (gp120) of virus 8320 (HIV-1)
[16] = molecular target: HIV-1 envelope glycoprotein (gp120) of virus CH040 (HIV-1)
[17] = molecular target: HIV-1 envelope glycoprotein (gp120) of virus 7141 (HIV-1); remark: listed apart in the source
[18] = molecular target: HIV-1 envelope glycoprotein (gp120) of virus CH106 (HIV-1)
[19] = molecular target: HIV-1 envelope glycoprotein (gp120) of virus THRO (HIV-1)
[20] = molecular target: HIV-1 envelope glycoprotein (gp120) of virus 7552 (HIV-1)
[21] = molecular target: HIV-1 envelope glycoprotein (gp120) of virus 8339 (HIV-1)
[22] = molecular target: HIV-1 envelope glycoprotein (gp120) of virus 7015 (HIV-1)
[23] = molecular target: HIV-1 envelope glycoprotein (gp120) of virus 92US727 (HIV-1); remark: listed apart in the source
[24] = molecular target: HIV-1 envelope glycoprotein (gp120) of virus 7007 (HIV-1)
[25] = molecular target: HIV-1 envelope glycoprotein gp120 of virus 8117 (HIV-1)
[26] = molecular target: HIV-1 envelope glycoprotein gp120 of virus BaL (HIV-1)
[27] = molecular target: HIV-1 envelope glycoprotein gp120 of virus 8339 (HIV-1)
[28] = molecular target: HIV-1 envelope glycoprotein gp120 of virus CH106 (HIV-1)
[29] = molecular target: HIV-1 envelope glycoprotein gp120 of virus 92US657 (HIV-1)
[30] = molecular target: HIV-1 envelope glycoprotein gp120 of virus 92US727 (HIV-1)
[31] = molecular target: HIV-1 envelope glycoprotein gp120 of virus 1413 (HIV-1)
[32] = molecular target: HIV-1 envelope glycoprotein gp120 of virus 92HT593 (HIV-1)
[33] = molecular target: HIV-1 envelope glycoprotein gp120 of virus 7015 (HIV-1)

B1: Antibody B-1 (antibody, human IgG1, kappa)
heavy: QVHLSQSGAAVTKPGASVRVSCEASGYKISDHFIHWWRQAPGQGLQWVGWINPKTGQPNNPRQFQGRVSLTRQASWDFDTYSFYMDLKAVRSDDTAIYFCARQRSDFWDFDVWGSGTQVTVSSASTKGPSVFPLAPSSKSTSGGTAALGCLVKDYFPEPVTVSWNSGALTSGVHTFPAVLQSSGLYSLSSVVTVPSSSLGTQTYICNVNHKPSNTKVDKKVEPKSCDKTHTCPPCPAPELLAGPDVFLFPPKPKDTLMISRTPEVTCVVVDVSHEDPEVKFNWYVDGVEVHNAKTKPREEQYNSTYRVVSVLTVLHQDWLNGKEYKCKVSNKALPLPEEKTISKAKGQPREPQVYTLPPSREEMTKNQVSLTCLVKGFYPSDIAVEWESNGQPENNYKTTPPVLDSDGSFFLYSKLTVDKSRWQQGNVFSCSVLHEALHSHYTQKSLSLSPGK
light: not shown
- Neutralization IC50 [1]: 0.1 µg/mL
- Neutralization IC50 [2]: 0.13 µg/mL
- Neutralization IC50 [3]: 1.43 µg/mL
- Neutralization IC50 [4]: 0.29 µg/mL
- Neutralization IC50 [5]: 2.57 µg/mL
- Neutralization IC50 [6]: > 50 µg/mL
- Neutralization IC50 [7]: 0.09 µg/mL
- Neutralization IC50 [8]: 0.41 µg/mL
- Neutralization IC50 [9]: 2.51 µg/mL
- Neutralization IC50 [10]: 0.53 µg/mL
- Neutralization IC50 [11]: 1.24 µg/mL
- Neutralization IC50 [12]: 0.24 µg/mL
- Neutralization IC50 [13]: 0.11 µg/mL
- Neutralization IC50 [14]: 0.35 µg/mL
- Neutralization IC50 [15]: 0.27 µg/mL
- Neutralization IC50 [16]: 0.14 µg/mL
- Neutralization IC50 [17]: 1.67 µg/mL
- Neutralization IC50 [18]: 1.51 µg/mL
- Neutralization IC50 [19]: 5.32 µg/mL
- Neutralization IC50 [20]: 26 µg/mL
- Neutralization IC50 [21]: > 50 µg/mL
- Neutralization IC50 [22]: 1.12 µg/mL
- Neutralization IC50 [23]: 2.13 µg/mL
- Neutralization IC50 [24]: > 50 µg/mL

B2: Antibody 1.1.112-1 (antibody, human IgG1, kappa)
heavy: B1 heavy with H3Q, S5L, K28N, S30R, H32Y, Q73H, Y81F, V90L, I97V, F107Y
light: not shown
- HIV Neutralization Potency [25]: 1.45 µg/mL
- HIV Neutralization Potency [26]: 0.12 µg/mL
- HIV Neutralization Potency [27]: 31.4 µg/mL
- HIV Neutralization Potency [28]: 1.31 µg/mL
- HIV Neutralization Potency [29]: 0.74 µg/mL
- HIV Neutralization Potency [30]: 30.3 µg/mL
- HIV Neutralization Potency [31]: 2.05 µg/mL
- HIV Neutralization Potency [32]: 0.56 µg/mL
- HIV Neutralization Potency [33]: 0.75 µg/mL
